Drawing on US9404916B2, “Use of a protein kinase inhibitor to detect immune cells, such as T cells” (University College Cardiff Consultants Limited, priority 2008, dated 2016), this text covers MFI for 1 substance.

Where “and” joins values, the source holds several entries; their conditions need not be identical. Equal values may be shown once.

In this test the target is F5 TCR (on splenocytes of F5 TCR transgenic mice).

As to “H2-Db/… (SEQ ID NO:7)-PE tetramer (from UniProt P01899 25-309) (peptide-MHC)”, the MFI is 156 and 234.
